According to patent USRE46376 (Wyeth LLC, dated 2017):

Experiments:
[1] = target: L44905-86-07 Triple mutant toxin B (SEQ ID NO: 6), Rxn3, 25° C., day 1 (Clostridium difficile (based on strain …))
[2] = target: L44905-86-08 Triple mutant toxin B (SEQ ID NO: 6), Rxn1, 10° C., day 5 (Clostridium difficile (based on strain …))
[3] = target: L44905-86-14 Triple mutant toxin B (SEQ ID NO: 6), Rxn1, 10° C., day 7 (Clostridium difficile (based on strain …))
[4] = target: L44905-86-06 Triple mutant toxin B (SEQ ID NO: 6), Rxn3, 10° C., day 1 (Clostridium difficile (based on strain …))
[5] = target: L44905-86-12 Triple mutant toxin B (SEQ ID NO: 6), Rxn3, 10° C., day 5 (Clostridium difficile (based on strain …))
[6] = target: L44905-86-10 Triple mutant toxin B (SEQ ID NO: 6), Rxn2, 10° C., day 5 (Clostridium difficile (based on strain …))
[7] = target: L44905-86-02 Triple mutant toxin B (SEQ ID NO: 6), Rxn1, 10° C., day 1 (Clostridium difficile (based on strain …))
[8] = target: L44905-86-19 Triple mutant toxin B (SEQ ID NO: 6), Rxn3, 25° C., day 7 (Clostridium difficile (based on strain …))
[9] = target: L44905-86-11 Triple mutant toxin B (SEQ ID NO: 6), Rxn2, 25° C., day 5 (Clostridium difficile (based on strain …))
[10] = target: L44905-86-16 Triple mutant toxin B (SEQ ID NO: 6), Rxn2, 10° C., day 7 (Clostridium difficile (based on strain …))
[11] = target: L44905-86-15 Triple mutant toxin B (SEQ ID NO: 6), Rxn1, 25° C., day 7 (Clostridium difficile (based on strain …))
[12] = target: L44905-86-09 Triple mutant toxin B (SEQ ID NO: 6), Rxn1, 25° C., day 5 (Clostridium difficile (based on strain …))
[13] = target: L44905-86-18 Triple mutant toxin B (SEQ ID NO: 6), Rxn3, 10° C., day 7 (Clostridium difficile (based on strain …))
[14] = target: L44905-86-05 Triple mutant toxin B (SEQ ID NO: 6), Rxn2, 25° C., day 1 (Clostridium difficile (based on strain …))
[15] = target: L44905-86-03 Triple mutant toxin B (SEQ ID NO: 6), Rxn1, 25° C., day 1 (Clostridium difficile (based on strain …))
[16] = target: L44905-86-17 Triple mutant toxin B (SEQ ID NO: 6), Rxn2, 25° C., day 7 (Clostridium difficile (based on strain …))
[17] = target: L44905-86-13 Triple mutant toxin B (SEQ ID NO: 6), Rxn3, 25° C., day 5 (Clostridium difficile (based on strain …))

Measured: binding result

B1: B8-26 mAb (C. difficile TcdB neutralizing antibody) (antibody, V domains shown)
VH: QVQLQQPGAELVKPGAPVKLSCKASGYSFTSYWMNWVKQRPGRGLEWIGRIDPSNSEIYYNQKFKDKATLTVDKSSSTAYIQLSSLTSEDSAVYYCASGHYGSIFAYWGQGTTLTVSS
VL: VQITQSPSYLAASPGETITINCRASKSISKYLAWYQEKPGKTNKLLLYSGSTLQSGIPSRFSGSRSGTDFTLIISSLEPEDSAMYYCQQHNEYPLTFGAGTKLELKR
binds: all assays above

B2: B59-3 mAb (C. difficile TcdB neutralizing antibody) (antibody, V domains shown)
VH: QVQLQQPGAELVKPGASVKLSCKASGYTFTSYWMHWVKQRPGQGLEWIGVINPSNGRSTYSEKFKTTATVTVDKSSSTAYMQLSILTSEDSAVYYCARAYYSTSYYAMDYWGQGTSVTVSS
VL: VLMTQSPLSLPVSLGDQASISCRSSQNIVHSNGNTYLEWYLQKPGQSPKLLIYKVSNRFSGVPDRFSGSGSGTYFTLKISRVEAEDLGVYYCFQGSHFPFTFGTGTKLEIKR
binds: all assays above
